Reference: US9206463B2, “Method of testing a disinfectant or antibiotic using phenanthridium derivatives” (Montana State University, priority 2006, dated 2015)

What was measured:
Streptococcus sobrinus = assay: genomic DNA yield of live and dead cells after PMA or EMA treatment; format: cell-based; details: live cells, EMA 50 μM
Pseudomonas syringae = assay: genomic DNA yield of live cells after EMA treatment; details: EMA 50 μM
Serratia marcescens = assay: as above; details: EMA 50 μM
Salmonella typhimurium = assay: as above; details: EMA 50 μM
Listeria monocytogenes [1] = format: cell-based
Listeria monocytogenes [2] = assay: benzalkonium disinfection, loss of culturability by plate counts; format: cell-based; details: 30 minutes exposure

## CC[n+]1c(-c2ccccc2)c2cc(N=[N+]=[N-])ccc2c2ccc(N)cc21.[Br-] [EMA]
Streptococcus sobrinus
  loss of DNA due to EMA treatment of live cells: significant loss of DNA
Pseudomonas syringae
  loss of DNA due to EMA treatment of live cells: a certain loss of DNA
Serratia marcescens
  loss of DNA due to EMA treatment of live cells: without any loss of DNA
Salmonella typhimurium
  loss of DNA due to EMA treatment of live cells: without any loss of DNA

## benzalkonium chloride [BAC]
Listeria monocytogenes [1]
  greatest qPCR signal reduction: around 17 PCR cycles
Listeria monocytogenes [2]; 55 and 60 ppm benzalkonium
  culturability (colonies on plates): No colonies
Listeria monocytogenes [2]; plate counts
  BAC concentrations that increasingly reduced culturability: exceeding 30 ppm
